A mixed list of measured activities; the numbers were collected in NIAID ChemDB.

All rows: cytotoxicity tests; cells: VERO; read-out: CC50

CCn: concentration that lowers growth or viability of the cells by n%. An empty or dashed field is not shown. Rows are shuffled and stem from different studies.

smiles	read by	value
Cc1ccc(C(=O)N(O)CC2=C(C(=O)O)N3C(=O)[C@@H](NC(=O)Cc4ccccc4)C3SC2)cc1		>128 µM
O=c1[nH]c(=O)n([C@H]2C[C@H](O)[C@@H](COP3(=O)OCc4cccc(-c5ccccc5)c4O3)O2)cc1/C=C/Br		32.9 µg/mL
C=C1CCC2C3(C)COC(C)(C)OC3CCC2(C)C1C/C=C1\C(=O)OCC1O	crystal violet	40.2 µM
Clc1ccc(CNc2ccccc2-n2ccnc2)cc1		2 µg/mL
Nc1nc(NC2CCCCC2)c2ncn(/C=C3/C[C@@H]3CO)c2n1		72 µM
Cc1c(CN2CCSCC2)cc(-c2ccccc2)n1-c1ccc(F)cc1		8 µg/mL
CCCC(=O)[C@@]1(CCC2OCCO2)CC[C@@]2(c3ccccc3)ON12		>50 µg/mL
Cc1ccc2nc(Cl)c(/C=C/C(=O)c3c4ccccc4cc4ccccc34)cc2c1	MTS	20.9 µM
CCN(CC)c1ccc(/C=N/NC(=O)Cn2nc(-c3ccccc3)c3c2-c2ccccc2S(=O)(=O)N3C)cc1		23.5 µM
Nc1c(-c2ccccc2)c(-c2ccccc2)n(COCCO)c1-c1ccccc1		42 µM
O[C@@H](c1cc(C(F)(F)F)nc2c(C(F)(F)F)cccc12)[C@H]1CCCCN1		38.1 µM
O=c1c2cccc(Cl)c2[nH]c2cc(O)cc(O)c12		52 µM
Cc1cccc(-n2c(-c3ccc(F)cc3)cc(CN3CCSCC3)c2C)c1		8 µg/mL
CN1CCN(c2ccccc2NCc2ccc(-c3ccccc3)cc2)CC1		4 µg/mL
COc1ccc2nc(Cl)c(/C=C/C(=O)c3sccc3Cl)cc2c1	MTS	14.2 µM
O=C(NCc1ccc(Cl)cc1)c1c[nH]c2ccc(CCCO)cc2c1=O		>100 µM
N#Cc1csnc1-c1ccccc1		100 µM
COc1cccc([C@H](c2cc3cc(Br)ccc3nc2OC)[C@@](O)(CCN(C)C)c2cncc(C)c2)c1OC		>10 µg/mL
CSc1nsc(SC)c1C#N		12 µM
COc1cccc([C@H](c2cc3cc(Br)ccc3nc2OC)[C@@](O)(CCN(C)C)c2cncc(C)c2)c1F		>10 µg/mL
CN1CCN(c2ccc(NCc3ccc(-c4ccccc4)cc3)cc2)CC1		1 µg/mL
C=C1CCC2C(C)(CO)C(O)CCC2(C)C1CCC1=CCOC1=O	crystal violet	80.3 µM
COc1cccc([C@H](c2cc3cc(C#N)ccc3nc2OC)[C@@](O)(CCN(C)C)c2cccc(C)n2)c1F		>10 µg/mL
CCCC(=O)[C@]1(CCC2OCCO2)CC[C@@]2(c3ccccc3)ON12		>50 µg/mL
C(=C\c1ccccc1)/CCNc1cccc(N2CCSCC2)c1		16 µg/mL
O=C(Cc1ccccc1)N[C@@H]1C(=O)N2C(C(=O)O)=C(CN(O)C(=O)c3ccccc3)CSC12		>128 µM
Cc1ccc2[nH]c3cc(O)cc(O)c3c(=O)c2c1		60 µM
O=C(C/C=C/c1ccccc1)Nc1ccccc1N1CCSCC1		64 µg/mL
CC(C)(C)OC(=O)Nc1ccc(-c2cc(C(F)(F)F)nc3c(C(F)(F)F)cccc23)cc1		15 µM
COc1ccc([C@](O)(CCN(C)C)[C@@H](c2cc3cc(Br)ccc3nc2OC)c2cccc(OC)c2OC)cn1		>10 µg/mL
Cc1c(CN2CCN(C)CC2)cc(-c2cccc3ccccc23)n1-c1ccccc1		4 µg/mL
CSc1nsc(-c2ccc(C)cc2)c1C#N		18 µM
COc1ccnc([C@](O)(CCN(C)C)[C@@H](c2cc3cc(C#N)ccc3nc2OC)c2cccc(OC)c2F)c1		>10 µg/mL
Nc1nc2c(ncn2COC2COP(=O)(O)OC2)c(=O)[nH]1		40 µM
Cc1ccc2nc(Cl)c(/C=C/C(=O)c3cc4ccccc4o3)cc2c1	MTS	17.3 µM
N#Cc1c([N+](=O)[O-])c(-c2ccccc2)n(COCCO)c1-c1ccccc1		>300 µM
CN1c2c(-c3ccccc3)nn(CC(=O)N/N=C/c3ccc(Br)cc3)c2-c2ccccc2S1(=O)=O		36.4 µM
Cc1cc(CCCCCOc2c(Cl)cc(C3=NCCO3)cc2Cl)on1		15 µg/mL
CN(C)c1ccc(/C=N/NC(=O)Cn2nc(-c3ccccc3)c3c2-c2ccccc2S(=O)(=O)N3C)cc1		>100 µM
Cc1c(CN2CCSCC2)cc(-c2ccc(F)cc2)n1-c1ccccc1		4 µg/mL
CO[C@H]1C[C@H](n2cc(/C=C/Br)c(=O)[nH]c2=O)O[C@@H]1COP1(=O)OCc2cccc(C)c2O1		33.5 µg/mL
CC(=O)OCCOCn1c(-c2ccccc2)c(Br)c(-c2ccccc2)c1-c1ccccc1		16 µM
FC(F)(F)c1cc(-n2ccnc2)c2cccc(C(F)(F)F)c2n1		>128 µM
CCCCCCC[C@H]1CC2CCC3C(C(=O)OCCCCCCCCCC4N=C(N)N5CCCC5=C4C(=O)OCCCCN=C(N)N)=C(C)NC(=N1)N23		1.8 µM
C=C1CCC2C3(C)COC(C)(C)OC3CCC2(C)C1/C=C/C1=CCOC1=O	crystal violet	44.9 µM
CN1CCN(c2ccccc2NCc2ccc(Cl)cc2)CC1		8 µg/mL
Cc1ccccc1-c1cc(CN2CCSCC2)c(C)n1-c1ccc(F)cc1		8 µg/mL
O=C(Nc1ccc(N2CCSCC2)cc1)c1ccc(Cl)cc1		64 µg/mL
CC(=O)OCCOCn1c(-c2ccccc2)cc([N+](=O)[O-])c1-c1ccccc1		37 µM
O=C(Nc1ncco1)NC12CC3CC(CC(C3)C1)C2	MTT	22 µg/mL
O=c1[nH]c(=O)n([C@H]2C[C@H](O)[C@@H](COP3(=O)OCc4ccc5ccccc5c4O3)O2)cc1/C=C/Br		16.3 µg/mL
Nc1ccn(C[C@@H](CO)OCP(=O)(O)O)c(=O)n1		75 µg/mL
O=c1c2cc(Cl)ccc2[nH]c2cc(O)cc(O)c12		60 µM
FC(F)(F)c1cc(N2CCNCC2)c2cccc(C(F)(F)F)c2n1		62 µM
CCOC(=O)c1c(Br)c(-c2ccccc2)n(COCCO)c1-c1ccccc1		64 µM
Nc1nc2c(ncn2COC(CO)CCP(=O)(O)O)c(=O)[nH]1		>1000 µM
CCCC[C@]1(C(=O)CCC)CC[C@@]2(c3ccccc3)ON12		<50 µg/mL
C=C1CC[C@@H]2[C@](C)(CO)[C@H](O)CC[C@@]2(C)[C@@H]1C/C=C1/C(=O)OC[C@H]1O	crystal violet	76.3 µM
c1ccc(-c2ccc(CNc3ccc(N4CCSCC4)cc3)cc2)cc1		4 µg/mL
CN(C)CCNc1cc(C(F)(F)F)nc2c(C(F)(F)F)cccc12		52 µM
Cc1c(CN2CCN(C)CC2)cc(-c2ccccc2Cl)n1-c1ccccc1		4 µg/mL
Nc1nc(=O)n([C@@H]2CC[C@H](CO)O2)cc1F		33 µM
COc1ccc2nc(Cl)c(/C=C/C(=O)c3ccc[nH]3)cc2c1	MTS	16.4 µM
Cc1c(CN2CCN(C)CC2)cc(-c2ccccc2)n1-c1ccc(F)cc1		4 µg/mL
FC(F)(F)c1cc(NCc2ccccn2)c2cccc(C(F)(F)F)c2n1		35 µM
Cc1c(CN2CCN(C)CC2)cc(-c2ccccc2F)n1-c1ccccc1F		8 µg/mL
CSc1nsc(-c2ccc(O)cc2)c1C#N		2 µM
Cc1c(CN2CCSCC2)cc(-c2ccccc2Cl)n1-c1ccccc1		2 µg/mL
CCCCCCCCC[C@H]1CC2CCC3C(C(=O)OCCCCCCCCCC4N=C(N)N5CCCC5=C4C(=O)OCCCCN=C(N)N)[C@@H](C)N=C(N1)N23		1.6 µM
COc1ccc2nc3n[nH]c(C)c3c(SCc3ccco3)c2c1		>100 µg/mL
COc1cccc([C@H](c2cc3cc(Br)ccc3nc2OC)[C@@](O)(CCN(C)C)c2cc(C)cnc2C)c1F		>10 µg/mL
Nc1nc2c(ncn2COC(COP(=O)(O)O)COP(=O)(O)O)c(=O)[nH]1		800 µM
COc1cccc([C@](O)(CCN(C)C)[C@H](c2cccc(C)c2)c2cc3cc(C#N)ccc3nc2OC)n1		>10 µg/mL
CN1c2c(-c3ccccc3)nn(CC(=O)N/N=C/c3cccc(Br)c3)c2-c2ccccc2S1(=O)=O		>100 µM
O=C(Nn1c(-c2ccccc2)ccc1-c1ccccc1)c1ccncc1	MTT	>100 µg/mL
COc1ccc2nc(Cl)c(/C=C/C(=O)c3ccc4ccccc4c3)cc2c1	MTS	52 µM
O=c1[nH]c(=O)n([C@@H]2O[C@H](CO)[C@@H](O)[C@@H]2O)cc1/C=C/Br		730 µM
O=C(Cc1ccccc1)N[C@@H]1C(=O)N2C3=C(CSC12)CN(C(=O)c1ccc(C(F)(F)F)cc1)OC3=O		>128 µM
COc1nc2ccc(Br)cc2cc1[C@@H](c1cccc(F)c1)[C@@](O)(CCN(C)C)c1cncc(C)c1		>10 µg/mL
Cc1c(CN2CCSCC2)cc(-c2cccc3ccccc23)n1-c1ccccc1		4 µg/mL
CCOC(=O)CC1OP(=O)(OC[C@H]2O[C@@H](n3cc(/C=C/Br)c(=O)[nH]c3=O)C[C@@H]2O)Oc2cccc(Cl)c21		18.3 µg/mL
Cc1c(CN2CCSCC2)cc(-c2ccccc2)n1-c1ccccc1		32 µg/mL